Results of unrelated studies side by side (data: NIAID ChemDB).

All rows: tests in culture; organism: Parainfluenza virus; strain or isolate: TYPE 3; cells: VERO; endpoint: EC50

ECn: concentration that inhibits the pathogen or its effect by n%. Lines come from different laboratories, so protocols vary.

Cc1ccn2c(C3SCCS3)cnc2c1 ; result: >1000 µM
O=c1[nH]cnc2c1ncn2C1C[C@H](CO)[C@@H](CO)C1 ; result: >100 µg/mL
CC(=O)OCCOCN1C(N)=CC(N)=NS1(=O)=O ; result: >400 µg/mL
OCCCCn1cc(Cn2ncc3c(NCc4ccccc4)ncnc32)nn1 ; result: >400 µg/mL
Cc1cccn2c(C3OCCS3)cnc12 ; result: >1000 µM
CC(=O)OCCOCN1C=CC(=O)N(COCCO)S1(=O)=O ; result: >400 µg/mL
CC(C)Nc1ncnc2c1ncn2C1C[C@H](CO)[C@@H](CO)C1 ; result: >100 µg/mL
CSc1ncnc2c1cnn2Cc1cn(CCCCO)nn1 ; result: 240 µg/mL
C/C(O)=C1\C(=N)N(COCCO)S(=O)(=O)N=C1N ; result: >400 µg/mL
Cc1ccn2c(C3OCCO3)cnc2c1 ; result: >1000 µM
CNc1ncnc2c1cnn2Cc1cn(CCCCO)nn1 ; result: >400 µg/mL
CC(=O)OCCOCN1C=CC(=O)NS1(=O)=O ; result: >400 µg/mL
O=c1[nH]c(=O)n(C2C[C@H](CO)[C@@H](CO)C2)cc1I ; result: >100 µg/mL
CC(=O)OCCOCN1C=C(C#N)C(N)=NS1(=O)=O ; result: >400 µg/mL
Cc1cccn2c(C3OCCO3)cnc12 ; result: >1000 µM

For reference, 2 entries again:

smiles,result
CC(C)Nc1ncnc2c1ncn2C1C[C@H](CO)[C@@H](CO)C1,>100 µg/mL
CC(=O)OCCOCN1C(N)=CC(N)=NS1(=O)=O,>400 µg/mL